Results of unrelated studies side by side (data: NIAID ChemDB).

Common to all: whole-cell or culture tests; organism: Mycobacterium avium intracellulare; measure: MIC

Lines come from different laboratories, so protocols vary.

smiles,strain or isolate,result
CC(C)N=c1cc2n(-c3ccc(Cl)cc3)c3ccccc3nc-2cc1Nc1ccc(Cl)cc1,99241,2 µg/mL
CCNC(=O)[C@@H](NC(=O)Cc1ccccc1)[C@@H]1N[C@@H](C(=O)NCCNC(=O)[C@@H]2N[C@@H]([C@H](NC(=O)Cc3ccccc3)C(=O)NCC)SC2(C)C)C(C)(C)S1,CIPT 140310021,25 µg/mL
CO[C@H]1/C=C/O[C@@]2(C)Oc3c(C)c(O)c4c(=O)c(c5oc6cc(N7CCN(CC(C)C)CC7)cc(=O)c6nc5c4c3=C2O)NC(=O)/C(C)=C\C=C\[C@H](C)[C@H](O)[C@@H](C)[C@@H](O)[C@@H](C)[C@H](OC(C)=O)[C@@H]1C,N-481 (HIV-),0.0313 µg/mL
CC[C@H]1OC(=O)[C@H](C)[C@@H](OC2C[C@@](C)(OC)[C@@H](O)[C@H](C)O2)[C@H](C)[C@@H](O[C@@H]2O[C@H](C)C[C@H](N(C)C)[C@H]2O)C(C)(OC)C[C@@H](C)/C(=N\OCCCOc2ccccc2)[C@H](C)[C@@H](O)[C@]1(C)O,20066,3.13 µg/mL
OCCN1CCN(CCC=C2c3ccccc3Sc3ccc(Cl)cc32)CC1,R 1631,12.5 µg/mL
CC1(C)S[C@@H]2[C@H](NC(=O)C(C(=O)O)c3ccccc3)C(=O)N2[C@H]1C(=O)O,CIPT 140310034,25 µg/mL
CC[C@H]1OC(=O)[C@H](C)[C@@H](OC2C[C@@](C)(OC)[C@@H](O)[C@H](C)O2)[C@H](C)[C@@H](O[C@@H]2O[C@H](C)C[C@H](N(C)C)[C@H]2O)C(C)(O)C[C@@H](C)/C(=N\OCCC2CCCCC2)[C@H](C)[C@@H](O)[C@]1(C)O,20066,6.25 µg/mL
CC[C@H]1OC(=O)[C@H](C)[C@@H](O[C@H]2C[C@@](C)(OC)[C@@H](OC(C)=O)[C@H](C)O2)[C@H](C)[C@@H](O[C@@H]2O[C@H](C)C[C@H](N(C)C)[C@H]2O)C(C)(O)C[C@@H](C)/C(=N\OCc2ccccc2)[C@H](C)[C@@H](O)[C@]1(C)O,20066 (clarithromycin-susceptible),3.13 µg/mL
CC[C@H]1OC(=O)[C@H](C)[C@@H](O[C@H]2C[C@@](C)(OC)[C@@H](OC(C)=O)[C@H](C)O2)[C@H](C)[C@@H](OC2O[C@H](C)C[C@H](N(C)C)[C@H]2OC(=O)NC)C(C)(O)C[C@@H](C)/C(=N\OCCCC2CCCCC2)[C@H](C)[C@@H](O)[C@]1(C)O,20073,3.13 µg/mL
OCCN1CCN(CC/C=C2\c3ccccc3Sc3ccc(C(F)(F)F)cc32)CC1,ATCC 23432,6.25 µg/mL
CCCO/N=C1\[C@H](C)CC(C)(O)[C@H](O[C@@H]2O[C@H](C)C[C@H](N(C)C)[C@H]2O)[C@@H](C)[C@H](OC2C[C@@](C)(OC)[C@@H](O)[C@H](C)O2)[C@@H](C)C(=O)O[C@H](CC)[C@@](C)(O)[C@H](O)[C@H]1C,20066 (clarithromycin-susceptible),3.13 µg/mL
NNC(=O)c1ccncc1,N-481 (HIV-),8 µg/mL
CC[C@H]1OC(=O)[C@H](C)[C@@H](OC2C[C@@](C)(OC)[C@@H](O)[C@H](C)O2)[C@H](C)[C@@H](O[C@@H]2O[C@H](C)C[C@H](N(C)C)[C@H]2O)C(C)(O)C[C@@H](C)/C(=N\OCC2CCCCC2)[C@H](C)[C@@H](O)[C@]1(C)O,20066,6.25 µg/mL
CCCCNC(=O)O[C@H]1C(O[C@@H]2[C@@H](C)[C@H](O[C@H]3C[C@@](C)(OC)[C@@H](OC(C)=O)[C@H](C)O3)[C@@H](C)C(=O)O[C@H](CC)[C@@](C)(O)[C@H](O)[C@@H](C)/C(=N/OCCCC3CCCCC3)[C@H](C)CC2(C)O)O[C@H](C)C[C@@H]1N(C)C,20067,0.2 µg/mL
CCCCO/N=C1\[C@H](C)CC(C)(O)[C@H](O[C@@H]2O[C@H](C)C[C@H](N(C)C)[C@H]2O)[C@@H](C)[C@H](OC2C[C@@](C)(OC)[C@@H](O)[C@H](C)O2)[C@@H](C)C(=O)O[C@H](CC)[C@@](C)(O)[C@H](O)[C@H]1C,20066,1.56 µg/mL
CO[C@H]1/C=C/O[C@@]2(C)Oc3c(C)c(O)c4c(O)c(c5c(c4c3C2=O)NC2(CCN(CC(C)C)CC2)N=5)=NC(=O)/C(C)=C\C=C\[C@H](C)[C@H](O)[C@@H](C)[C@@H](O)[C@@H](C)[C@H](OC(C)=O)[C@@H]1C,SKV,0.125 µg/mL
CC[C@H]1OC(=O)[C@H](C)[C@@H](OC2C[C@@](C)(OC)[C@@H](O)[C@H](C)O2)[C@H](C)[C@@H](O[C@@H]2O[C@H](C)C[C@H](N(C)C)[C@H]2O)C(C)(O)C[C@@H](C)/C(=N\OCCCCc2ccccc2)[C@H](C)[C@@H](O)[C@]1(C)O,20066,1.56 µg/mL
COc1ccc2c(c1)N(C[C@H](C)CN(C)C)c1ccccc1S2,R 8411,25 µg/mL
CC[C@H]1OC(=O)[C@H](C)[C@@H](OC(=O)Cc2ccccc2)[C@H](C)[C@@H](O[C@@H]2O[C@H](C)C[C@H](N(C)C)[C@H]2O)C(C)(O)C[C@@H](C)/C(=N\OCCCOc2ccccc2)[C@H](C)[C@@H](O)[C@]1(C)O,20066 (clarithromycin-susceptible),3.13 µg/mL
CN[C@@H]1[C@H](O[C@H]2[C@H](O[C@H]3[C@H](O)[C@@H](O)[C@H](N=C(N)N)[C@@H](O)[C@@H]3N=C(N)N)O[C@@H](C)[C@]2(O)C=O)O[C@@H](CO)[C@H](O)[C@H]1O,N-897 (HIV-),8 µg/mL
CC[C@H]1OC(=O)[C@H](C)[C@@H](O[C@H]2C[C@@](C)(OC)[C@@H](O)[C@H](C)O2)[C@H](C)[C@@H](O[C@@H]2O[C@H](C)C[C@H](N(C)C)[C@H]2O)[C@](C)(OC)C[C@@H](C)C(=O)[C@H](C)[C@@H](O)[C@]1(C)O,20066,3.13 µg/mL
OCCN1CCN(CC/C=C2/c3ccccc3Sc3ccc(Cl)cc32)CC1,E 48067,12.5 µg/mL
CC(=O)NC[C@H]1CN(c2ccc(N3CCN(c4ccc([N+](=O)[O-])s4)CC3)c(F)c2)C(=O)O1,18/98,0.25 µg/mL
CCCCCCCCCCCCO/N=C1\[C@H](C)CC(C)(O)[C@H](O[C@@H]2O[C@H](C)C[C@H](N(C)C)[C@H]2O)[C@@H](C)[C@H](OC2C[C@@](C)(OC)[C@@H](O)[C@H](C)O2)[C@@H](C)C(=O)O[C@H](CC)[C@@](C)(O)[C@H](O)[C@H]1C,20066,50 µg/mL
CCCCCNC(=O)O[C@H]1C(O[C@@H]2[C@@H](C)[C@H](O[C@H]3C[C@@](C)(OC)[C@@H](OC(C)=O)[C@H](C)O3)[C@@H](C)C(=O)O[C@H](CC)[C@@](C)(O)[C@H](O)[C@@H](C)/C(=N/OCCCC3CCCCC3)[C@H](C)CC2(C)O)O[C@H](C)C[C@@H]1N(C)C,20067,0.2 µg/mL
CC[C@H]1OC(=O)[C@H](C)[C@@H](O[C@H]2C[C@@](C)(OC)[C@@H](OC(C)=O)[C@H](C)O2)[C@H](C)[C@@H](O[C@@H]2O[C@H](C)C[C@H](N(C)C)[C@H]2O)C(C)(O)C[C@@H](C)/C(=N\OCCCc2ccccc2)[C@H](C)[C@@H](O)[C@]1(C)O,20066 (clarithromycin-susceptible),3.13 µg/mL
CC/C=C/CCNC(=O)O[C@H]1C(O[C@@H]2[C@@H](C)[C@H](O[C@H]3C[C@@](C)(OC)[C@@H](OC(C)=O)[C@H](C)O3)[C@@H](C)C(=O)O[C@H](CC)[C@@](C)(O)[C@H](O)[C@@H](C)/C(=N/OCCCC3CCCCC3)[C@H](C)CC2(C)O)O[C@H](C)C[C@@H]1N(C)C,20066,0.2 µg/mL
Cc1onc(-c2ccccc2Cl)c1C(=O)N[C@@H]1C(=O)N2[C@@H]1SC(C)(C)[C@@H]2C(=O)O,CIPT 140310034,75 µg/mL
CC[C@H]1OC(=O)[C@H](C)[C@@H](O[C@H]2C[C@@](C)(OC)[C@@H](OC(C)=O)[C@H](C)O2)[C@H](C)[C@@H](O[C@@H]2O[C@H](C)C[C@H](N(C)C)[C@H]2OC(=O)NNCc2ccncc2)C(C)(O)C[C@@H](C)/C(=N\OCCCC2CCCCC2)[C@H](C)[C@@H](O)[C@]1(C)O,20066 (clarithromycin-susceptible),1.56 µg/mL
C[C@@H]1CN(c2c(F)c(N)c3c(=O)c(C(=O)O)cn(C4CC4)c3c2F)C[C@H](C)N1,N-481 (HIV-),16 µg/mL
CCCCCCCCNC(=O)O[C@H]1C(O[C@@H]2[C@@H](C)[C@H](O[C@H]3C[C@@](C)(OC)[C@@H](OC(C)=O)[C@H](C)O3)[C@@H](C)C(=O)O[C@H](CC)[C@@](C)(O)[C@H](O)[C@@H](C)/C(=N/OCCCC3CCCCC3)[C@H](C)CC2(C)O)O[C@H](C)C[C@@H]1N(C)C,20073,0.39 µg/mL
C[C@@H](O)[C@H]1C(=O)N2C(C(=O)O)=C(SCCN=CN)C[C@H]12,CIPT 140310023,>10 µg/mL
CC[C@H]1OC(=O)[C@H](C)[C@@H](O[C@H]2C[C@@](C)(OC)[C@@H](O)[C@H](C)O2)[C@H](C)[C@@H](O[C@@H]2O[C@H](C)C[C@H](N(C)C)[C@H]2O)[C@](C)(OC)C[C@@H](C)C(=O)[C@H](C)[C@@H](O)[C@]1(C)O,20066 (clarithromycin-susceptible),3.13 µg/mL

The last 3 rows once more:

smiles | strain or isolate | result
CCCCCCCCNC(=O)O[C@H]1C(O[C@@H]2[C@@H](C)[C@H](O[C@H]3C[C@@](C)(OC)[C@@H](OC(C)=O)[C@H](C)O3)[C@@H](C)C(=O)O[C@H](CC)[C@@](C)(O)[C@H](O)[C@@H](C)/C(=N/OCCCC3CCCCC3)[C@H](C)CC2(C)O)O[C@H](C)C[C@@H]1N(C)C | 20073 | 0.39 µg/mL
C[C@@H](O)[C@H]1C(=O)N2C(C(=O)O)=C(SCCN=CN)C[C@H]12 | CIPT 140310023 | >10 µg/mL
CC[C@H]1OC(=O)[C@H](C)[C@@H](O[C@H]2C[C@@](C)(OC)[C@@H](O)[C@H](C)O2)[C@H](C)[C@@H](O[C@@H]2O[C@H](C)C[C@H](N(C)C)[C@H]2O)[C@](C)(OC)C[C@@H](C)C(=O)[C@H](C)[C@@H](O)[C@]1(C)O | 20066 (clarithromycin-susceptible) | 3.13 µg/mL